Pooled drug test results. Numbers come from NIAID ChemDB, via PubChem.

Common to all: whole-cell or culture tests; agent: HIV-1; read-out: EC90

Blank or dashed fields: not listed here. Two numbers with a dash give a range or band. ECn: concentration that inhibits the pathogen or its effect by n%. Rows are shuffled and stem from different studies.

{"compound": "N#CC[C@H](C1CCCC1)n1cc(-c2ncnc3[nH]ccc23)cn1", "strain": "LAI", "read by": "p24 / ELISA", "cell line": "Primary T lymphocytes", "result": "6.1 µM"}
{"compound": "CC(C)c1nc(CN(C)C(=O)N[C@H](C(=O)N[C@@H](Cc2ccccc2)C[C@H](O)[C@H](Cc2ccccc2)NC(=O)OCc2cncs2)C(C)C)cs1", "strain": "NL4-3", "changes": "PR-D30N A71V", "read by": "p24", "cell line": "MT-4", "result": "0.01 µM"}
{"compound": "CCOc1cccc(Cc2cc(C3CCN(C[C@H]4CN([C@@H](C(=O)O)C(C)(C)C)C[C@@H]4c4cccc(F)c4)CC3)n(CC)n2)c1", "strain": "BaL", "read by": "β-galactosidase", "cell line": "HeLa", "setting": "50% human serum", "result": "0.1 µM"}
{"compound": "Nc1nc(=O)n([C@@H]2CS[C@H](CO)O2)cc1F", "changes": "L74V", "read by": "p24 / ELISA", "cell line": "Primary T lymphocytes", "result": "1.3 µM"}
{"compound": "Cc1cn([C@H]2C[C@H](C#N)[C@@H](CO)O2)c(=O)[nH]c1=O", "strain": "CBL-1", "read by": "cytopathic effect", "cell line": "C8166", "result": ">100 µg/mL"}
{"compound": "CCn1nc(Cc2ccc(C(C)C)cc2)cc1C1CCN(C[C@H]2CN([C@@H](C(=O)O)C(C)(C)C)C[C@@H]2c2cccc(F)c2)CC1", "strain": "BaL", "read by": "β-galactosidase", "cell line": "HeLa", "result": "0.0004 µM"}
{"compound": "C1CNCCNCCCN(CCCN2CCCNCCNCCCNCC2)CCNC1", "strain": "HE", "read by": "cytopathic effect / MTT", "cell line": "MT-4", "result": "1.19 µM"}
{"compound": "COc1oc([C@H]2C/C(=C/C(C)=C/c3ccccc3)CO2)c(C)c(=O)c1C", "strain": "LAI", "read by": "fluorescence", "cell line": "PBMC + LC5-RIC", "result": "0.074 µM"}
{"compound": "CC[C@@H](C)[C@H](C(=O)O)N1C[C@H](CN2CCC(c3cc(Cc4ccc(O)cc4)nn3CC)CC2)[C@@H](c2cccc(F)c2)C1", "strain": "BaL", "read by": "β-galactosidase", "cell line": "HeLa", "setting": "50% human serum", "result": "0.011 µM"}
{"compound": "Cc1cn([C@H]2C[C@H](N=[N+]=[N-])[C@@H](CO)O2)c(=O)[nH]c1=O", "strain": "NL-XM WT", "read by": "p24", "cell line": "PBMC", "result": "0.12 µM"}
{"compound": "CCn1nc(Cc2ccc(OC(C)(C)C)cc2)cc1C1CCN(C[C@H]2CN([C@@H](C(=O)O)C(C)C)C[C@@H]2c2cccc(F)c2)CC1", "strain": "BaL", "read by": "β-galactosidase", "cell line": "HeLa", "result": "<0.00014 µM"}
{"compound": "COC(=O)c1ccc(/C=C(C)/C=C2\\CO[C@@H](c3oc(OC)c(C)c(=O)c3C)C2)cc1", "strain": "LAI", "read by": "fluorescence", "cell line": "PBMC + LC5-RIC", "result": "141 µM"}
{"compound": "O=C(Nc1cc(S(=O)(=O)O)cc2cc(S(=O)(=O)O)c(N=Nc3ccc(N=Nc4c(S(=O)(=O)O)cc5cc(S(=O)(=O)O)cc(NC(=O)c6cccc(Cl)c6Cl)c5c4O)cc3)c(O)c12)c1ccc(Cl)cc1Cl", "strain": "IIIB", "cell line": "H9", "result": "1–3.8 µg/mL"}
{"compound": "COc1oc([C@H]2C/C(=C/C(C)=C/c3ccc(C(=O)O)cc3)CO2)c(C)c(=O)c1C", "strain": "LAI", "read by": "fluorescence", "cell line": "PBMC + LC5-RIC", "result": "241 µM"}
{"compound": "C1CNCCNCCCN[C@H]([C@@H]2CNCCCNCCNCCCN2)CNC1", "strain": "IIIB", "read by": "cytopathic effect / MTT", "cell line": "MT-4", "result": "1.16 µM"}
{"compound": "COc1oc([C@H]2C/C(=C/C(C)=C/c3ccc(-c4ccccc4)cc3)CO2)c(C)c(=O)c1C", "strain": "LAI", "read by": "fluorescence", "cell line": "PBMC + LC5-RIC", "result": "0.4635 µM"}
{"compound": "O=C1N(Cc2ccc(CO)cc2)[C@H](Cc2ccccc2)[C@H](O)[C@@H](O)[C@@H](Cc2ccccc2)N1Cc1ccc(CO)cc1", "strain": "RF", "read by": "p24 / ELISA", "cell line": "MT-2", "result": "0.05 µM"}
{"compound": "COc1oc([C@H]2C/C(=C/C(C)=C/c3ccc(C(C)(C)C)cc3)CO2)c(C)c(=O)c1C", "strain": "LAI", "read by": "fluorescence", "cell line": "PBMC + LC5-RIC", "result": "3.939 µM"}
{"compound": "O=c1[nH]cnc2c1ncn2C1CC[C@@H](CO)O1", "changes": "4xAZT", "read by": "p24 / ELISA", "cell line": "Primary T lymphocytes", "result": "77.1 µM"}
{"compound": "COc1oc([C@H]2C/C(=C/C(C)=C/c3ccc(Cl)cc3Cl)CO2)c(C)c(=O)c1C", "strain": "LAI", "read by": "fluorescence", "cell line": "PBMC + LC5-RIC", "result": "1.818 µM"}
{"compound": "O=c1[nH]cnc2c1ncn2[C@H]1CC[C@@H](CO)O1", "strain": "XM-M184V", "changes": "RT-M184V", "read by": "p24", "cell line": "MT-4", "result": "6.4 µM"}

Repeating the first 2 entries:

compound,strain,changes,read by,cell line,setting,result
N#CC[C@H](C1CCCC1)n1cc(-c2ncnc3[nH]ccc23)cn1,LAI,,p24 / ELISA,Primary T lymphocytes,,6.1 µM
CC(C)c1nc(CN(C)C(=O)N[C@H](C(=O)N[C@@H](Cc2ccccc2)C[C@H](O)[C@H](Cc2ccccc2)NC(=O)OCc2cncs2)C(C)C)cs1,NL4-3,PR-D30N A71V,p24,MT-4,,0.01 µM